## Results of single-concentration screens

Source: ChEMBL document CHEMBL3988442, “University of Dundee, Small-Polar-MMV Screening Library” (2021).

The filed quantity is “Percent Effect” (%). The record does not define 0% and 100%; most values in the screen are far below 50% and negative numbers occur (in some assays of this library far below -100). The entries come from a sample that favours strong results. A dash means the value is not listed here; it may have been measured.

Mtb glucose medium: 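Whole-cell growth test on Mycobacterium tuberculosis, read after 3 days in glucose-containing 7H9 medium; the read-out is not stated. Compounds at 500 µM. Direction is inferred from retests: higher values go with more growth inhibition. About 18,000 compounds were tested under these conditions; 7.9% (about 1,400) showed 50% or more at least once.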
Mtb cholesterol medium: 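Growth of Mycobacterium tuberculosis over 4 days (cholesterol / DPPC medium with tyloxapol); the read-out is not stated. Concentration: 500 µM. Direction is inferred from retests: higher values go with more growth inhibition. Of about 18,000 compounds tested this way, about 900 (5%) reached 50% or more in at least one test.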

With CNS(=O)(=O)c1ccc2c(c1)oc(=O)n2C the screen gave Mtb glucose medium: 2.01%. With O=C(NCCCNCc1cccnc1)c1ccc(Cl)s1 the screen gave Mtb cholesterol medium: 20.63%. CCNC(=O)N1CCc2cc(OC)c(OC)cc2C1 read Mtb glucose medium: 21.85%; Mtb cholesterol medium: 21.25%. Result for OC1(CNCCCn2ncc3ccccc32)CCNC1 (stereo not shown) was Mtb glucose medium: 18.7%. CNC(=O)c1cc(NC)ccn1 read Mtb cholesterol medium: -0.8976%. For CN1CCCC(CN2CCN(c3nc[nH]n3)CC2)C1 (stereo not shown) the result was Mtb cholesterol medium: -20.78%. With CNS(=O)(=O)c1cccc2nonc12 the screen gave Mtb glucose medium: 9.853%.

CC1(C)CC(NC(=O)CC#N)CC(C)(C)N1 gave Mtb cholesterol medium: -57.16%. With NCCc1ccc(OCC(F)(F)F)nc1 the screen gave Mtb glucose medium: 57.44%; Mtb cholesterol medium: 53.71%. O=C(CC1C=CCC1)NCCNc1cnccn1 (stereo not shown) gave Mtb glucose medium: 15.55%. Result for Cc1ccc2c(c1)nc(CO)n2C was Mtb glucose medium: -1.081%; Mtb cholesterol medium: -10.84%. For CN1C(=O)Cc2cc(NC(=O)c3cccn3C)ccc21 the result was Mtb glucose medium: 2.338%. With CNC(=O)CCSc1ccc2c(c1)OCCO2 the screen gave Mtb glucose medium: 67.74%; Mtb cholesterol medium: 72.06%. Result for CCS(=O)(=O)Cc1cc(=O)n(C)c(=O)n1C was Mtb glucose medium: -9.365%.

CCC(NC(=O)c1ccc(=O)[nH]c1)c1nc(C)c(C)s1 (stereo not shown) gave Mtb glucose medium: 0.9446%. For CCCn1ccnc1CNC(=O)C(O)CCSC (stereo not shown) the result was Mtb glucose medium: -11.46%. COCCN1CCC(CC(=O)N2CCN(C)CC2)CC1 gave Mtb glucose medium: -18.98%. Result for CCC(CC)(CN)NS(=O)(=O)c1ccc(C(C)=O)cc1 was Mtb cholesterol medium: 15.58%. CC(C)OCCN(CC(N)=O)C(C)C read Mtb glucose medium: 9.129%; Mtb cholesterol medium: 18.63%. COc1ccc(C(=O)NCc2c(C)noc2C)cn1 gave Mtb glucose medium: 32.14%. With O[C@@H]1CCNC[C@@H]1O the screen gave Mtb cholesterol medium: -12.78%.

With CC(=O)N1CCN(Cc2ccc(Br)o2)CC1 the screen gave Mtb glucose medium: 15.15%. With C[n+]1ccn(C(=O)N2CCCC2)c1.[I-] the screen gave Mtb glucose medium: 19.01%. With CC[C@H](C)[C@H](NC(N)=O)C(=O)Nc1ccccc1F the screen gave Mtb glucose medium: -15.11%. For COc1ccc(CC(C)N)c(OC)c1OC (stereo not shown) the result was Mtb glucose medium: 47%; Mtb cholesterol medium: 10.36%. CNc1cc(-c2cccc(OC)c2)[nH]n1 gave Mtb glucose medium: 5.582%; Mtb cholesterol medium: -2.59%. Fc1cnc2[nH]ccc2c1 read Mtb glucose medium: -10.18%. c1ccc(CNCCOc2ccccn2)cc1 read Mtb glucose medium: 19.1%.

N#CCCNC(=O)CN1CCC2(CC1)OCCO2 read Mtb cholesterol medium: 0.7085%. For Clc1ccc2nnc(C3CCCO3)n2n1 (stereo not shown) the result was Mtb glucose medium: 28.27%. For CC(N)c1c(F)cccc1Cl (stereo not shown) the result was Mtb glucose medium: 14.26%. c1cc2nnnn2nc1NCCN1CCCCCC1 read Mtb glucose medium: 0.489%; Mtb cholesterol medium: -13.91%. With NC[C@@H](O)c1ccc(Cl)cc1 the screen gave Mtb glucose medium: 36.96%; Mtb cholesterol medium: 13.36%. For CN(C)C(=O)CNC(=O)c1cncc2ccccc12 the result was Mtb cholesterol medium: 3.482%. Result for CCN1CCCC1CNC(=O)c1cc(Cl)ccn1 (stereo not shown) was Mtb glucose medium: 6.169%.

NC(=O)Cc1ccccc1NC(=O)OCC(F)(F)F read Mtb cholesterol medium: 13.19%. With CN(C)c1cc(CNC(=O)CCc2ccco2)ccn1 the screen gave Mtb glucose medium: 25.91%. Result for CSc1ccccc1NCC(=O)NC1CC1 was Mtb glucose medium: 28.24%. CC(C)N(CCS(C)(=O)=O)C(=O)NCc1cccs1 read Mtb glucose medium: 23.97%.

For reference, 2 entries once more:

structure,Mtb glucose medium,Mtb cholesterol medium
N#CCCNC(=O)CN1CCC2(CC1)OCCO2,-,0.7085
COc1ccc(C(=O)NCc2c(C)noc2C)cn1,32.14,-